Test results reported in patent publication US20230227538A1.

Molecular target: SARS-CoV-2 Spike ectodomain, stabilized prefusion trimer (spike ECD, Spike^S2P) (SARS-CoV-2)
Test: spike ECD-ACE2 binding assay (FIG. 2C)

Substance “ACE2 as used in the spike ECD-ACE2 binding assay of FIG. 2C (from UniProt Q9BYF1 18-740) (receptor)” has a Kd of 0.044 µM.
